The text below walks through data of article PMC4782136 (Scientific Reports, 2016).

In the assay the test system is influenza A/Puerto Rico/8/34 (H1N1). In words: microbe, parasite or virus in culture. The note with it: H1N1, read-out: IC50 ± SD, H1N1.

What is called IC50 is the midpoint of a concentration-inhibition curve. With `CC(=O)N[C@H]1[C@H]([C@H](O)[C@H](O)CO)OC(C(=O)O)=C[C@@H]1N=C(N)N` [Zanamivir], the IC50 amounted to 310 nM.
